Measured values from several laboratories, pooled; numbers as filed in NIAID ChemDB.

All rows: tests in culture; agent: HIV-1; read-out: EC50

ECn: concentration that inhibits the pathogen or its effect by n%. Two numbers with a dash give a range or band. Conditions beyond the fields shown may differ between rows.

{"compound": "CC(=O)Nc1ccc(S(=O)(=O)N(Cc2ccccc2)C[C@@H](O)[C@H](CCc2ccccc2)NC(=O)Cc2c[nH]c3ccccc23)cc1", "result": "4.8 µM"}
{"compound": "COc1cc2ccnc3c2c(c1O)N(C)C=C3", "result": "0.6 µM"}
{"compound": "O=C(CSc1nc(CCc2ccccc2)nc2sc3c(c12)CCCC3)Nc1ccccc1N1CCOCC1", "result": "66.5 µM"}
{"compound": "Nc1ccn([C@@H]2O[C@H](CO)C=C2F)c(=O)n1", "mutations": "RT-M184V", "result": "1.8 µM"}
{"compound": "Cc1ncnc(C)c1C(=O)N1C[C@H]2CN(CCC(c3ccccc3)C3CCN(CC(F)F)CC3)C[C@H]2C1", "method": "cell fusion", "result": "0.137 µM"}
{"compound": "COc1cc2ccnc3c2c(c1OC(=O)CSc1ccccc1)N(C)C=C3", "result": "4.6 µM"}
{"compound": "Cc1ncnc(C)c1C(=O)N1C[C@H]2CN(CCC(c3ccccc3)C3CN(C(=O)CC(C)C)C3)C[C@H]2C1", "method": "cell fusion", "result": "5 µM"}
{"compound": "COc1cccc(C(=O)Oc2c(OC)cc3ccnc4c3c2N(C)C=C4)c1", "result": "33.7 µM"}
{"compound": "NCCNS(=O)(=O)c1cccc2cnccc12", "strain or isolate": "LAI", "result": ">16.7 µM"}
{"compound": "O=C(C[C@@H](O)CCc1ccccc1)c1ccc(O)cc1", "method": "cytopathic effect", "result": "10.86 µg/mL"}
{"compound": "Cc1ncnc(C)c1C(=O)N1C[C@H]2CN(CCC(c3ccccc3)C3CN(C(=O)C4CCCC4)C3)C[C@H]2C1", "method": "cell fusion", "result": "2.832 µM"}
{"compound": "CN1C(c2ccc(Cl)cc2)c2ccccc2S1(=O)=O", "method": "p24 / RT activity", "result": "19.6 µM"}
{"compound": "COc1cc([C@H](O)[C@H](CO)Oc2ccc(C(=O)CCO)cc2OC)ccc1O", "method": "cytopathic effect", "result": "1.86 µg/mL"}
{"compound": "CC1=C/C(=C\\[C@H](C)[C@@]23OC(=O)C[C@]2(C)[C@@]2(C)C[C@]4(O)CC56OC(=O)C[C@@]5(C)O[C@@](C)(CO)[C@]6(C)CC[C@]4(C)[C@@]2(C)O3)OC1=O", "method": "cytopathic effect", "result": ">100 µg/mL"}
{"compound": "COc1cc2ccnc3c2c(c1OC(=O)c1ccc(OC(F)(F)F)cc1)N(C)C=C3", "result": "2.3 µM"}
{"compound": "CCCCCCCCCCCCCCCC(=O)NC1C(COP(=O)(O)OC2CC(COP(=O)(O)OC3C(O)C(CO)OC3n3cnc4c(N)ncnc43)OC2n2cnc3c(N)ncnc32)OC(n2cnc3c(N)ncnc32)C1O", "method": "syncytia", "result": "<100 µM"}
{"compound": "CC1CN(S(=O)(=O)c2cccc3cnccc23)CCN1", "strain or isolate": "LAI", "result": ">16.7 µM"}
{"compound": "CN=C1Cc2cc(S(=O)(=O)N(CC(C)C)C[C@@H](O)[C@H](Cc3ccccc3)NC(=O)OC3CO[C@H]4OC[C@H](OCc5ccccc5F)[C@@H]34)ccc2N1", "strain or isolate": "IIIB", "result": "0.0007 µM"}
{"compound": "CCOCn1c(Cc2ccccc2)c(C(C)C)c(=O)[nH]c1=O", "strain or isolate": "A17", "mutations": "K103N + Y181C", "method": "MTT", "result": "56 µM"}
{"compound": "c1cc(-c2ccc(-c3ccc(C4=NCCN4)cc3)o2)ccc1C1=NCCN1", "result": "1 µM"}
{"compound": "O=C(CCCCc1ccccc1)c1ccc(O)cc1", "method": "cytopathic effect", "result": "2.14 µg/mL"}
{"compound": "CCCCN1C(=O)N(Cc2ccc3[nH]nc(N)c3c2)[C@H](Cc2ccccc2)[C@H](O)[C@@H](O)[C@H]1Cc1ccccc1", "strain or isolate": "Amprenavir-resistant (PR M46I I47V I50V)", "mutations": "PR-M46I I47V I50V", "result": "<0.087 µM"}
{"compound": "CC(=O)Nc1ccc(S(=O)(=O)N(CC(C)C)C[C@@H](O)[C@H](CCc2ccccc2)NC(=O)CN2C(=O)c3ccccc3S2(=O)=O)cc1", "result": "7.2 µM"}
{"compound": "Cc1ccc(N(C)C(=O)[C@H](Cc2ccccc2)NC(=O)CN2C(=O)NC3(CCCc4ccccc43)C2=O)cc1", "strain or isolate": "NL4-3", "method": "fluorescence", "result": ">20 µM"}
{"compound": "COc1cc2ccnc3c2c(c1OC(=O)c1ccc(F)c(F)c1)N(C)C=C3", "result": "16.6 µM"}
{"compound": "O=C1c2c(O)c(O)cc(S(=O)(=O)NCCCCCCNS(=O)(=O)c3cc(O)c(O)c4c3CN(Cc3ccc(F)c(Cl)c3)C4=O)c2CN1Cc1ccc(F)c(Cl)c1", "result": "5.5 µM"}
{"compound": "CN(C(=O)[C@H](Cc1ccccc1)NC(=O)CN1C(=O)NC2(CCCc3ccccc32)C1=O)c1ccccc1", "strain or isolate": "NL4-3", "method": "fluorescence", "result": ">20 µM"}
{"compound": "COC(=O)C(=O)N1CCC[C@H]1C(=O)N[C@H](Cc1ccccc1)C(=O)NCCCc1ccc(OCC(=O)N[C@@H](CC(N)=O)C(=O)N[C@@H](Cc2ccccc2)[C@H](O)C(=O)N2CCC[C@H]2C(=O)NC(C)(C)C)cc1", "result": ">100 µg/mL"}
{"compound": "CC(=O)Nc1nc(-c2cccc(NC(=O)C(CNC(=O)[C@@H](N)CCCCN)NC(=O)[C@@H](N)CCCCN)c2)cs1", "strain or isolate": "NL4-3", "method": "luciferase", "result": "1.78 µM"}
{"compound": "C/C(=C/CC[C@@H](C)C(=O)C1C[C@@]2(C)[C@@H]3CC[C@H]4C(C)(C)C(=O)CC[C@]4(C)C3=C[C@@]2(O)[C@]1(C)O)C(=O)O", "method": "syncytia", "result": "47.91 µg/mL"}
{"compound": "COc1cc2ccnc3c2c(c1OC(=O)c1ccc(C(C)(C)C)cc1)N(C)C=C3", "result": "3.7 µM"}
{"compound": "O=C1c2c(O)c(O)cc(S(=O)(=O)NCCCCNS(=O)(=O)c3cc(O)c(O)c4c3CN(Cc3ccc(F)c(Cl)c3)C4=O)c2CN1Cc1ccc(F)c(Cl)c1", "result": "4.9 µM"}
{"compound": "ClC(Cn1ncc2c(NCCc3ccccc3)nc(Sc3ccccc3)nc21)c1ccccc1", "result": ">100 µM"}
{"compound": "Nc1ccn([C@H]2CC[C@@H](CO)O2)c(=O)n1", "strain or isolate": "NL4-3", "mutations": "N126K", "method": "β-galactosidase", "result": "0.256 µM"}
{"compound": "Nc1ccn([C@@H]2O[C@H](CO)C=C2F)c(=O)n1", "mutations": "RT-M184V", "method": "cytopathic effect / MTT", "result": "<1.8 µM"}
{"compound": "ClC(Cn1ncc2c(NCCc3ccccc3)nc(SCCN3CCOCC3)nc21)c1ccccc1", "result": "33.45 µM"}
{"compound": "Cc1ccnc(SC(F)(F)c2nc3ccccc3o2)n1", "strain or isolate": "HEPT/236 (RT P236L)", "mutations": "RT-P236L", "result": "0.11 µM"}
{"compound": "CC(C)N1CCN(c2cc(N3CCN(C)C3=O)c3nc(-c4ncc(Cc5ccc(F)cc5)s4)c(O)c(=O)n3c2)CC1", "method": "p24 / ELISA", "setting": "50% human serum", "result": "0.0125 µM"}
{"compound": "CC(C)(C)OC(=O)N[C@@H](Cc1ccccc1)[C@@H](O)C[C@]1(Cc2ccccc2)NC=C(C2c3ccccc3[C@H]3NC(=O)O[C@@H]23)C1=O", "method": "p24", "result": "<0.2 µM"}
{"compound": "COC(=O)C(=O)N1CCC[C@H]1C(=O)N[C@H](Cc1ccccc1)C(=O)N[C@@H](CC(N)=O)C(=O)N[C@@H](Cc1ccccc1)[C@H](O)C(=O)N1CCC[C@H]1C(=O)NC(C)(C)C", "result": ">100 µg/mL"}
{"compound": "C=CCC1CCn2c(=O)[nH]c3cccc(c32)C1", "result": "1–2 µM"}
{"compound": "CCOCn1c(Cc2ccccc2)c(I)c(=O)[nH]c1=O", "mutations": "RT-Y181C", "result": "10 µM"}
{"compound": "CCCc1cc(=O)oc2c3c(c4c(c12)OC(C)(C)CC4)O[C@H](C)[C@@H](C)C3=O", "mutations": "RT-V108I", "method": "cytopathic effect / XTT", "result": ">100 µM"}
{"compound": "CN1C(c2ccc(Br)cc2)c2ccccc2S1(=O)=O", "method": "p24 / RT activity", "result": "11.02 µM"}
{"compound": "NC(=NC1CCCC1)c1ccc(-c2ccc(-c3ccc(C(N)=NC4CCCC4)cc3)o2)cc1", "result": "12 µM"}
{"compound": "CCCCCCCCCCCCCCCC(=O)NC1C(COP(=O)(O)OC2C(O)C(COP(=O)(O)OC3CC(CO)OC3n3cnc4c(N)ncnc43)OC2n2cnc3c(N)ncnc32)OC(n2cnc3c(N)ncnc32)C1O", "method": "p24", "result": ">300 µM"}
{"compound": "CN1N=C(N)c2cn([C@@H]3O[C@H](COP(=O)(O)O)[C@@H](O)[C@H]3O)c3ncnc1c23", "strain or isolate": "MN", "method": "XTT", "result": "0.01 µg/mL"}
{"compound": "CC(=O)Nc1nc(-c2cccc(NC(=O)[C@@H](N)Cc3cnc[nH]3)c2)cs1", "strain or isolate": "NL4-3", "method": "luciferase", "result": "0.41 µM"}
{"compound": "Cc1ncnc(C)c1C(=O)N1C[C@H]2CN(CCC(c3cc(F)cc(F)c3)C3CCN(CC(F)F)CC3)C[C@H]2C1", "method": "cell fusion", "result": "0.019 µM"}
{"compound": "O=S1(=O)NC(c2cccc(Cl)c2)c2ccccc21", "method": "p24 / RT activity", "result": "33.8 µM"}
{"compound": "O=S(=O)(NCCNC/C=C/c1ccc(Br)cc1)c1cccc2cnccc12", "strain or isolate": "LAI", "result": ">16.7 µM"}
{"compound": "c1ccc(CNCc2ccc(CN3CCCNCCNCCCNCC3)cc2)nc1", "strain or isolate": "NL4-3", "result": "0.001–0.01 µg/mL"}
{"compound": "CC(C)(C)NC(=O)[C@@H]1CCCN1C(=O)[C@@H](O)[C@H](Cc1ccccc1)NC(=O)[C@H](CC(N)=O)NC(=O)COc1ccccc1[N+](=O)[O-]", "result": "6 µg/mL"}
{"compound": "Cc1cc(CO)ccc1CNC(=O)[C@H]1N(C(=O)[C@@H](O)[C@H](CCc2ccccc2)NC(=O)O[C@H]2CO[C@H]3OCC[C@H]32)CSC1(C)C", "result": "0.23 µM"}
{"compound": "CC1CNCCN1S(=O)(=O)c1cccc2cnccc12", "strain or isolate": "LAI", "result": "<16.7 µM"}
{"compound": "CC(C)[C@H](NC(=O)[C@H](OCc1ccccc1)[C@H](O)[C@@H](O)[C@@H](OCc1ccccc1)C(=O)N[C@H]1c2ccccc2C[C@H]1O)C(=O)NCCF", "result": "0.17 µM"}
{"compound": "CCOCn1c(Cc2ccccc2)c(C#N)c(=O)n(COCC)c1=O", "mutations": "RT-Y181C", "result": ">100 µM"}
{"compound": "CCC(=O)N1CCC(C(CCN2C[C@@H]3CN(C(=O)c4c(C)ncnc4C)C[C@@H]3C2)c2ccccc2)CC1", "method": "cell fusion", "result": ">5 µM"}
{"compound": "FC(F)(Sc1ncccn1)c1nc2ccccc2o1", "strain or isolate": "CALO", "mutations": "RT-T139I", "result": "3.2 µM"}
{"compound": "Cc1c(O)cccc1C(=O)N[C@@H](Cc1cccc(F)c1)[C@H](O)C(=O)N1CC(F)(F)C(C)(C)[C@H]1C(=O)NCC(F)(F)F", "result": "0.01 µM"}
{"compound": "Nn1cc[nH]c1=S", "strain or isolate": "IIIB", "result": "0.2–4 µg/mL"}
{"compound": "CCOCn1c(Cc2cccc(C(F)(F)F)c2)c(CC)c(=O)[nH]c1=O", "strain or isolate": "A17", "mutations": "K103N + Y181C", "method": "MTT", "result": "45 µM"}
{"compound": "CNC(=O)[C@@H](NC(=O)[C@@](O)(CCCN(Cc1ccc(-c2ccccn2)cc1)NC(=O)[C@@H](NC(=O)OC)C(C)(C)C)Cc1ccccc1)C(C)(C)C", "result": "1.9 µM"}
{"compound": "Cc1ccc(C)c2c1NC(=O)C2CC(=O)N[C@@H](Cc1ccccc1)C(=O)N(C)c1cccc(F)c1", "strain or isolate": "NL4-3", "method": "fluorescence", "result": "2.8 µM"}
{"compound": "Cc1ncnc(C)c1C(=O)N1C[C@H]2CN(CCC(c3ccccc3)C3CN(S(=O)(=O)C4CC4)C3)C[C@H]2C1", "method": "cell fusion", "result": "0.313 µM"}
{"compound": "Nc1ccn([C@@H]2OCC(CO)=C2F)c(=O)n1", "result": ">100 µg/mL"}
{"compound": "CC(C)(C)NC(=O)[C@@H]1CCCN1C(=O)[C@@H](O)[C@H](Cc1ccccc1)NC(=O)[C@H](CC(N)=O)NC(=O)OCc1ccccc1", "result": "<1 µg/mL"}
{"compound": "CN1C(c2ccccc2Cl)c2ccccc2S1(=O)=O", "method": "p24 / RT activity", "result": "0.093 µM"}
{"compound": "O=C(CNc1ccc2c(c1)OCO2)CSc1nc(CCc2ccccc2)nc2sc3c(c12)CCCC3", "result": "92 µM"}
{"compound": "O=S(=O)(c1cccc2c(Cl)cccc12)N1CCCNCC1", "strain or isolate": "LAI", "result": ">16.7 µM"}
{"compound": "Cc1cc(O)c(C)c(C(=O)N[C@@H](Cc2cccc(F)c2)[C@H](O)C(=O)N2CC(F)(F)C(C)(C)[C@H]2C(=O)NCC(C)(C)C)c1", "result": "0.0088 µM"}

The first 9 rows once more:

CC(=O)Nc1ccc(S(=O)(=O)N(Cc2ccccc2)C[C@@H](O)[C@H](CCc2ccccc2)NC(=O)Cc2c[nH]c3ccccc23)cc1 ; result: 4.8 µM
COc1cc2ccnc3c2c(c1O)N(C)C=C3 ; result: 0.6 µM
O=C(CSc1nc(CCc2ccccc2)nc2sc3c(c12)CCCC3)Nc1ccccc1N1CCOCC1 ; result: 66.5 µM
Nc1ccn([C@@H]2O[C@H](CO)C=C2F)c(=O)n1 ; mutations: RT-M184V ; result: 1.8 µM
Cc1ncnc(C)c1C(=O)N1C[C@H]2CN(CCC(c3ccccc3)C3CCN(CC(F)F)CC3)C[C@H]2C1 ; method: cell fusion ; result: 0.137 µM
COc1cc2ccnc3c2c(c1OC(=O)CSc1ccccc1)N(C)C=C3 ; result: 4.6 µM
Cc1ncnc(C)c1C(=O)N1C[C@H]2CN(CCC(c3ccccc3)C3CN(C(=O)CC(C)C)C3)C[C@H]2C1 ; method: cell fusion ; result: 5 µM
COc1cccc(C(=O)Oc2c(OC)cc3ccnc4c3c2N(C)C=C4)c1 ; result: 33.7 µM
NCCNS(=O)(=O)c1cccc2cnccc12 ; strain or isolate: LAI ; result: >16.7 µM